A mixed list of measured activities; the numbers were collected in NIAID ChemDB.

Common to all: toxicity to cultured cells; cell line: MT-4; read-out: CC50

CCn is the concentration with n% toxicity to the cells.

compound,method,value
N#C/C(=C/c1ccccc1I)n1nnc2ccccc21,-,25 µM
Cc1ccc(S(=O)(=O)N2CCCN(Cc3ccccc3)CCCN(S(=O)(=O)c3ccc(C)cc3)CC(=O)C2)cc1,trypan blue / propidium iodide,47.2 µM
CNC(=O)CN1CCn2c(nc(C(=O)NCc3ccc(F)cc3)c(O)c2=O)C1(C)C,microscopy,>1 µM
NC(=O)c1[nH]c2ccc(Cl)cc2c1S(=O)(=O)C1CCC1,microscopy,>10 µM
N#C/C(=C\c1ccc(I)cc1)n1nnc2ccccc21,-,1.4 µM
Cc1cc(C)cc(S(=O)(=O)c2c(C(=O)N[C@@H]3CCN(Cc4ccccc4C#N)C3)[nH]c3ccc(Cl)cc23)c1,MTT,>186 µM
Nc1ncnc2c1nnn2[C@H]1C[C@H](O)[C@@H](CO)O1,-,1.2 µM
CC(=O)Cn1c(Oc2cc(C)cc(C)c2)c(C(C)C)c(=O)[nH]c1=O,MTT,>100 µg/mL
NC(=O)c1[nH]c2ccc(Cl)cc2c1S(=O)(=O)C1CCCC1,microscopy,>10 µM
COc1ccccc1/C=C(\C#N)n1nnc2ccccc21,-,8.3 µM
NC(=O)c1[nH]c2ccc(Cl)cc2c1S(=O)(=O)CC1CCC1,microscopy,>10 µM
N#C/C(=C\c1ccc(C(F)(F)F)cc1)n1nnc2ccccc21,-,3.5 µM
Clc1ccc(-c2nnc3sc(CC45CC6CC(CC(C6)C4)C5)nn23)cc1,MTT,>125 µg/mL
Nc1nccc2c1nnn2[C@H]1CC[C@@H](CO)O1,-,387 µM
Cc1c(C(C)c2ccc3ccccc3c2)n(COCc2ccccc2)c(=O)[nH]c1=O,MTT,>312 µM
Cc1cc(C)cc(Oc2c(C(C)C)c(=O)[nH]c(=O)n2Cc2cc(Br)cc(Br)c2)c1,MTT,>100 µg/mL
Cc1ccccc1C(c1c(C)c(=O)[nH]c(=O)n1COCc1ccccc1)C(C)C,MTT,34.7 µM
Cc1cc(C)cc(C(=O)c2c(C(C)C)c(=O)[nH]c(=O)n2Cc2ccccc2C#N)c1,MTT,>100 µg/mL
Fc1ccc(-c2nnc3sc(CC45CC6CC(CC(C6)C4)C5)nn23)cc1,MTT,65.33 µg/mL
Cc1cc(C)cc(S(=O)(=O)c2c(C(=O)N[C@@H]3CCN(Cc4ccccc4F)C3)[nH]c3ccc(Cl)cc23)c1,MTT,>232 µM
CCOC(=O)c1[nH]c2ccc(Cl)cc2c1SC1CCCCC1,microscopy,>10 µM
CC1(C)c2nc(C(=O)NCc3ccc(F)cc3)c(O)c(=O)n2CCN1Cc1cnco1,microscopy,>1 µM
CCc1c(Sc2cc(C)cc(C)c2)n(Cc2nc3ccccc3o2)c(=O)[nH]c1=O,MTT,>100 µg/mL
Cc1cc(C)nc(N2C(=O)CSC2c2c(C(F)(F)F)ccc(Cl)c2F)c1,-,163 µM
Cc1cc(C)cc(Oc2c(C(C)C)c(=O)[nH]c(=O)n2Cc2ccc3ccccc3c2)c1,MTT,8.2 µg/mL
CCC(c1ccccc1OC)c1c(C)c(=O)[nH]c(=O)n1COCc1ccccc1,MTT,32.35 µM
Cc1cc(C)cc(Oc2c(C(C)C)c(=O)[nH]c(=O)n2Cc2ccccc2C#N)c1,MTT,>100 µg/mL
C=C1CN(S(=O)(=O)c2ccc(C)cc2)CCCN(C(C)=O)CCCN(S(=O)(=O)c2ccc(C)cc2)C1,trypan blue / propidium iodide,>75 µM
COc1cccc(C(C)c2c(C)c(=O)[nH]c(=O)n2COCc2ccccc2)c1,MTT,>166 µM
Cc1cc(C)cc(S(=O)(=O)c2c(C(=O)N[C@@H]3CCN(Cc4n[nH]c(=O)n4C)C3)[nH]c3ccc(Cl)cc23)c1,MTT,22.43 µM
Nc1nccc2c1nnn2[C@H]1C[C@H](O)[C@@H](CO)O1,-,>396 µM
COc1cccc(OC)c1C1SCC(=O)N1c1cccc(C)n1,-,241.5 µM
Cc1c(C(C)(O)c2ccc(F)cc2)n(COCc2ccccc2)c(=O)[nH]c1=O,MTT,237 µM
O=C(NCCO)c1[nH]c2ccc(Cl)cc2c1Sc1ccccc1,MTT,>100 µM
CCCS(=O)(=O)NC(=O)c1[nH]c2ccc(Cl)cc2c1S(=O)(=O)c1cc(C)cc(C)c1,MTT,141 µM
Cc1ccccc1S(=O)(=O)c1c(C(=O)NNCCO)[nH]c2ccc(Cl)cc12,MTT,>100 µM
Cc1ccc(S(=O)(=O)N2CCCN(Cc3ccccc3)CCCN(S(=O)(=O)c3ccc(C)cc3)CC(CO)C2)cc1,trypan blue / propidium iodide,41 µM
CN(C)C1COCCn2c1nc(C(=O)NCc1ccc(F)cc1)c(O)c2=O,microscopy,>1 µM
Cc1cccc(-c2nnc3sc(CC45CC6CC(CC(C6)C4)C5)nn23)c1,MTT,≥10.9 µg/mL
O=C(O)/C(=C\c1ccc(Cl)cc1)n1nnc2ccccc21,-,>100 µM
Cn1ccc(CN2CCn3c(nc(C(=O)NCc4ccc(F)cc4)c(O)c3=O)C23CC3)n1,microscopy,>1 µM
OC[C@H]1O[C@@H](n2nnc3c(Cl)nccc32)C[C@@H]1O,-,272 µM
Cc1cc(C)cc(Oc2c(C(C)C)c(=O)[nH]c(=O)n2Cc2cccc(Cl)n2)c1,MTT,>100 µg/mL
CCOC(=O)c1[nH]c2ccc(Cl)cc2c1S(=O)(=O)CCC1CC1,microscopy,>10 µM
CN1CCn2c(nc(C(=O)NCc3ccc(F)cc3)c(O)c2=O)C(NCc2ccccc2)C1,microscopy,>1 µM
COc1cccc(OC)c1C1SCC(=O)N1c1cccc(Br)n1,-,>316.2 µM
Fc1ccccc1-c1nnc2sc(CC34CC5CC(CC(C5)C3)C4)nn12,MTT,≥14.9 µg/mL
Cc1ccc(Sc2c(C(=O)NCCO)[nH]c3ccc(Cl)cc23)c(C)c1,MTT,>100 µM
Cc1c(C(C)(O)c2cccc(C(F)(F)F)c2)n(COCc2ccccc2)c(=O)[nH]c1=O,MTT,91.9 µM
N#C/C(=C/c1ccc[nH]1)n1nc2ccccc2n1,-,80 µM
Nc1ccn([C@@H]2OC[C@H](CO)[C@H]2O)c(=O)n1,-,>100 µM
Cc1ccc(Sc2c(C(=O)NCCO)[nH]c3ccc(Cl)cc23)cc1,MTT,>100 µM
C=C1CN(S(=O)(=O)c2ccccc2)CCCN(Cc2ccccc2)CCCN(S(=O)(=O)c2ccccc2)C1,trypan blue / propidium iodide,40.2 µM
Cc1cccc(C)c1C1SCC(=O)N1c1cccc(Br)n1,-,268.3 µM
C=C1CN(S(=O)(=O)c2ccc(C)cc2)CCCN(CC(C)CC)CCCN(S(=O)(=O)c2ccc(C)cc2)C1,trypan blue / propidium iodide,34.5 µM
Cc1cccc(C(C)(O)c2c(C)c(=O)[nH]c(=O)n2COCc2ccccc2)c1,MTT,133 µM
Cc1cc(C#N)cc(C)c1Oc1nc(Nc2ccc(C#N)cc2)nc(N)c1Br,MTT,>4.61 µM
Cc1ccc(S(=O)(=O)N2CCCN(Cc3ccccc3)CCCN(S(=O)(=O)c3ccc(C)cc3)CC(CCl)C2)cc1,trypan blue / propidium iodide,46.9 µM

Again, the opening 8 rows:

N#C/C(=C/c1ccccc1I)n1nnc2ccccc21 ; value: 25 µM
Cc1ccc(S(=O)(=O)N2CCCN(Cc3ccccc3)CCCN(S(=O)(=O)c3ccc(C)cc3)CC(=O)C2)cc1 ; method: trypan blue / propidium iodide ; value: 47.2 µM
CNC(=O)CN1CCn2c(nc(C(=O)NCc3ccc(F)cc3)c(O)c2=O)C1(C)C ; method: microscopy ; value: >1 µM
NC(=O)c1[nH]c2ccc(Cl)cc2c1S(=O)(=O)C1CCC1 ; method: microscopy ; value: >10 µM
N#C/C(=C\c1ccc(I)cc1)n1nnc2ccccc21 ; value: 1.4 µM
Cc1cc(C)cc(S(=O)(=O)c2c(C(=O)N[C@@H]3CCN(Cc4ccccc4C#N)C3)[nH]c3ccc(Cl)cc23)c1 ; method: MTT ; value: >186 µM
Nc1ncnc2c1nnn2[C@H]1C[C@H](O)[C@@H](CO)O1 ; value: 1.2 µM
CC(=O)Cn1c(Oc2cc(C)cc(C)c2)c(C(C)C)c(=O)[nH]c1=O ; method: MTT ; value: >100 µg/mL

Blank or dashed fields: not listed here. Neighbouring rows are from separate reports.